According to patent US4909940A, “Extraction of process chemicals from labile biological mixtures with organic alcohols or with halogenated hydrocarbons” (priority 1987, dated 1990):

Key:
[1] = test system: VSV; assay: Virus kill in whole plasma: VSV; format: cell-based; conditions: 2% TNBP at 37° C. or 1% TNBP/1% detergent at 30° C., 4 hours
[2] = test system: Sindbis Virus; assay: Virus kill in whole plasma: Sindbis virus; format: cell-based; conditions: 2% TNBP at 37° C. or 1% TNBP/1% detergent at 30° C., 4 hours
[3] = test system: HIV; assay: Virus kill in whole plasma: HIV; conditions: 2% TNBP at 37° C., 4 hours
[4] = test system: HBV; assay: Virus kill in whole plasma: HBV; conditions: 2% TNBP at 37° C., 4 hours
[5] = test system: NANBHV; assay: Virus kill in whole plasma: NANBHV; conditions: 2% TNBP at 37° C., 4 hours

CCCCOP(=O)(OCCCC)OCCCC
Virus Kill (log10 decline) [1]: 4.2 log10
Virus Kill (log10 decline) [2]: 5.2 log10
Virus Kill (log10 decline) [3]: 3.6 log10
Virus Kill (log10 decline) [4]: 6.0 log10
Virus Kill (log10 decline) [5]: 5.0 log10
